Anti-infective test results gathered from many reports (values: NIAID ChemDB through PubChem).

Shared fields: toxicity to cultured cells; cells: MT-4; method: MTT; measure: CC50

CCn: concentration that lowers growth or viability of the cells by n%.

{"SMILES": "CC(C)(C)n1cc(C(=O)O)c(=O)c2cc(Br)c(Oc3ccnc(Nc4ccc(C#N)cc4)n3)cc21", "result": "23.58 µM"}
{"SMILES": "CCc1c(Cc2cc(C)cc(C)c2)n(COCC#Cc2ccc(C#CCOCn3c(Cc4cc(C)cc(C)c4)c(CC)c(=O)[nH]c3=O)cc2)c(=O)[nH]c1=O", "result": "85 µM"}
{"SMILES": "Cc1cn([C@H]2C[C@H](N=[N+]=[N-])[C@@H](COC(=O)CCC(=O)OCC3OC4OC5C(COS(=O)(=O)O)OC(OC6C(COS(=O)(=O)O)OC(OC7C(COS(=O)(=O)O)OC(OC8C(COS(=O)(=O)O)OC(OC9C(COS(=O)(=O)O)OC(OC3C(OS(=O)(=O)O)C4OS(=O)(=O)O)C(OS(=O)(=O)O)C9OS(=O)(=O)O)C(OS(=O)(=O)O)C8OS(=O)(=O)O)C(OS(=O)(=O)O)C7OS(=O)(=O)O)C(OS(=O)(=O)O)C6OS(=O)(=O)O)C(OS(=O)(=O)O)C5OS(=O)(=O)O)O2)c(=O)[nH]c1=O", "result": ">100 µg/mL"}
{"SMILES": "O=C(CSc1sc(Cl)nc1-c1ccc(Br)cc1Br)Nc1cccnc1Cl", "result": "23.24 µM"}
{"SMILES": "COc1ccc(CN2CCC(N=C3C=C(Cc4cccc5ccccc45)NS(=O)(=O)N3)CC2)cc1", "result": "199 µM"}
{"SMILES": "Cc1cc(C)c(Nc2nc(NC3CCN(Cc4cccc(F)c4)CC3)nc3nc[nH]c23)c(C)c1", "result": "30.68 µM"}
{"SMILES": "COc1ccc2nc3cc(Cl)ccc3c(N3CCCC(O)C3)c2c1", "result": "6.2 µM"}
{"SMILES": "CCN(CC)c1nc(Cc2cccc3ccccc23)cc(=O)[nH]1", "result": "≥72.22 µM"}
{"SMILES": "CC(C)=CCN(C(C)C(=O)O)S(=O)(=O)c1cc(Cl)ccc1N", "result": ">200 µM"}
{"SMILES": "Nc1nc(-c2ccc(Br)cc2Br)c(SCC(=O)Nc2ccc(Cl)cc2Cl)s1", "result": "20.73 µM"}
{"SMILES": "CCCCNC(=S)N/N=C(\\C)c1nc2ccc(Cl)cc2[nH]1", "result": "1.76 µg/mL"}
{"SMILES": "Cc1ccccc1NC(=O)CSc1sc(N)nc1-c1ccc(Br)cc1Br", "result": "23.96 µM"}
{"SMILES": "CCc1c(Cc2ccccc2C)n(COCC#CC#CCOCn2c(Cc3ccccc3C)c(CC)c(=O)[nH]c2=O)c(=O)[nH]c1=O", "result": "8 µM"}
{"SMILES": "COc1ccc(CN2CCC(Nc3nc(Nc4c(C)cc(C)cc4C)c4[nH]cnc4n3)CC2)cc1", "result": "15.1 µM"}
{"SMILES": "O=C(CCC(=O)N1CCN(CCNC(=S)Nc2ccc(Br)cn2)CC1)NCC(=O)OC[C@@H]1C=C[C@H](n2ccc(=O)[nH]c2=O)O1", "result": ">100 µM"}
{"SMILES": "CC(C)=CCN1C(C)Cn2c(=O)n(CC=C(C)C)c3cc(Cl)cc(c32)S1(=O)=O", "result": "63 µM"}
{"SMILES": "CCn1cc(C(=O)O)c(=O)c2cc(I)c(Oc3ccnc(Nc4ccc(C#N)cc4)n3)cc21", "result": "12.96 µM"}
{"SMILES": "COc1ccc2nc3cc(Cl)ccc3c(Nc3cccnc3)c2c1", "result": "9 µM"}
{"SMILES": "CCCn1cc(C(=O)O)c(=O)c2cc(Br)c(Oc3ccnc(Nc4ccc(C#N)cc4)n3)cc21", "result": "18.16 µM"}
{"SMILES": "CCOC(=O)c1cn(Cc2cccnc2)c(Sc2cc(Cl)cc(Cl)c2)c1C(C)C", "result": ">200 µM"}
{"SMILES": "COc1ccc2nc3cc(Cl)ccc3c(NCCCO)c2c1", "result": "59 µM"}
{"SMILES": "Cc1ccnc2c1NC(=O)c1cccnc1N2C1CC1", "result": ">15 µM"}
{"SMILES": "Cc1cn([C@H]2C[C@H](N=[N+]=[N-])[C@@H](COC(=O)CCC(=O)OC[C@H]3O[C@@H]4O[C@H]5[C@H](O)[C@@H](O)[C@@H](O[C@H]6[C@H](O)[C@@H](O)[C@@H](O[C@H]7[C@H](O)[C@@H](O)[C@@H](O[C@H]8[C@H](O)[C@@H](O)[C@@H](O[C@H]9[C@H](O)[C@@H](O)[C@@H](O[C@H]3[C@H](O)[C@H]4O)O[C@@H]9CO)O[C@@H]8CO)O[C@@H]7CO)O[C@@H]6CO)O[C@@H]5CO)O2)c(=O)[nH]c1=O", "result": "7.37 µg/mL"}
{"SMILES": "Cc1cn([C@H]2C=C[C@@H](COC(=O)CNC(=O)CCC(=O)N3CCN(CCNC(=S)Nc4ccc(Br)cn4)CC3)O2)c(=O)[nH]c1=O", "result": ">100 µM"}
{"SMILES": "O=S1(=O)NC(Cc2ccc(Cl)cc2Cl)=CC(=NC2CCN(Cc3ccccc3)CC2)N1", "result": "110.8 µM"}
{"SMILES": "CCOC(=O)c1ccc(NC(=O)CSc2nncnc2-c2cccc3ccccc23)c(Cl)c1", "result": "150 µM"}
{"SMILES": "COc1ccc2nc3cc(Cl)ccc3c(NC[C@@H]3CCCN4CCCC[C@H]34)c2c1", "result": "0.5 µM"}
{"SMILES": "O=S1(=O)NC(Cc2ccc(Cl)cc2Cl)=CC(=NC2CCN(Cc3c(Cl)cccc3Cl)CC2)N1", "result": "48.2 µM"}
{"SMILES": "Cc1cn([C@H]2C[C@H](N=[N+]=[N-])[C@@H](CO)O2)c(=O)[nH]c1=O", "result": ">88.26 µM"}
{"SMILES": "COC(=O)c1ccc(NC(=O)CSc2nncnc2-c2cccc3ccccc23)c(Br)c1", "result": "173 µM"}
{"SMILES": "Cc1c(Cc2cccc3ccccc23)nc(NC(C)C)[nH]c1=O", "result": "54 µM"}
{"SMILES": "N#Cc1cccc(CN2CCC(N=C3C=C(Cc4cccc5ccccc45)NS(=O)(=O)N3)CC2)c1", "result": "113 µM"}
{"SMILES": "CCc1c(Cc2cc(C)cc(C)c2)n(COCC#Cc2ccc(I)cc2)c(=O)[nH]c1=O", "result": "44 µM"}
{"SMILES": "Cc1c(Cc2cccc3ccccc23)nc(NCc2ccccc2)[nH]c1=O", "result": "35.03 µM"}
{"SMILES": "Cc1ccccc1NC(=O)CSc1nncnc1-c1cccc2ccccc12", "result": ">158 µM"}
{"SMILES": "S=C(NCCN1CCNCC1)Nc1ccc(Br)cn1", "result": ">100 µM"}
{"SMILES": "CCN(CC)c1nc(Cc2cccc3ccccc23)c(C)c(=O)[nH]1", "result": ">388.9 µM"}
{"SMILES": "CCc1c(Cc2cc(C)cc(C)c2)n(COCc2cn([C@H]3CC(n4cc(C)c(=O)[nH]c4=O)OC3CO)nn2)c(=O)[nH]c1=O", "result": ">100 µM"}
{"SMILES": "O=C(CSc1nncnc1-c1ccccc1Cl)Nc1ccccn1", "result": "172 µM"}
{"SMILES": "CC(C)=CCN1C(C)C(=S)Nc2ccc(Cl)cc2S1(=O)=O", "result": ">200 µM"}
{"SMILES": "Cc1cc(C#N)cc(C)c1Oc1nc(Nc2ccc(C#N)cc2)nc(N)c1Br", "result": "14.24 µM"}
{"SMILES": "Cc1cc(C)cc(CN2C(C)C(=O)Nc3ccc(Cl)cc3S2(=O)=O)c1", "result": ">200 µM"}
{"SMILES": "O=c1[nH]cnc2c1ncn2[C@H]1CC[C@@H](CO)O1", "result": ">100 µg/mL"}
{"SMILES": "Cc1cn([C@H]2C[C@H](N=[N+]=[N-])[C@@H](CO)O2)c(=O)[nH]c1=O", "result": "36.78 µM"}
{"SMILES": "COC(=O)c1ccc(CN2CCC(Nc3nc(Nc4c(C)cc(C)cc4C)c4[nH]cnc4n3)CC2)cc1", "result": "24.06 µM"}
{"SMILES": "Cc1cn([C@H]2C[C@@H]3OC[C@H]2[C@@H]3CO)c(=O)[nH]c1=O", "result": ">400 µg/mL"}
{"SMILES": "COc1ccc2nc3cc(Cl)ccc3c(NC3CN4CCC3CC4)c2c1", "result": "1.9 µM"}
{"SMILES": "O=C(CSc1nncnc1-c1cccc2ccccc12)N1CCc2ccccc2C1", "result": "13 µM"}
{"SMILES": "CC(=O)c1ccc(CN2CCC(N=C3C=C(Cc4cccc5ccccc45)NS(=O)(=O)N3)CC2)cc1", "result": "106 µM"}
{"SMILES": "Cc1ccc(Sc2c(C(C)C)c(COC(N)=O)cn2Cc2ccncc2)cc1", "result": ">200 µM"}
{"SMILES": "O=C(CSc1nncnc1-c1cccc2ccccc12)Nc1cccnc1Cl", "result": "44 µM"}
{"SMILES": "Cc1c(Cc2cccc3ccccc23)nc(NC2CCCCC2)[nH]c1=O", "result": "40.21 µM"}
{"SMILES": "Cc1ccnc2c1NC(=O)c1cccnc1N2C1CC1", "result": ">200 µM"}
{"SMILES": "O=C(CSc1sc(Cl)nc1-c1ccc(Br)cc1Br)Nc1ccccc1F", "result": "33.18 µM"}
{"SMILES": "C#CCOCn1c(Cc2cc(C)cc(C)c2)c(CC)c(=O)[nH]c1=O", "result": ">100 µM"}
{"SMILES": "Cc1ccccc1NC(=O)CSc1nncnc1-c1ccccc1Cl", "result": "142 µM"}
{"SMILES": "Cc1cc(C)cc(Sc2c(C(C)C)c(CO)cn2Cc2ccncc2)c1", "result": "≥200 µM"}
{"SMILES": "Cc1cn([C@H]2C[C@H](N=[N+]=[N-])[C@@H](CO)O2)c(=O)[nH]c1=O", "result": "10 µg/mL"}
{"SMILES": "CCc1c(Cc2cc(C)cc(C)c2)n(COCC#Cc2ccc(COCn3c(Cc4cc(C)cc(C)c4)c(CC)c(=O)[nH]c3=O)cc2)c(=O)[nH]c1=O", "result": "16 µM"}
{"SMILES": "Cc1cc(C)c(Nc2nc(NC3CCN(Cc4ccccc4C)CC3)nc3nc[nH]c23)c(C)c1", "result": "7.81 µM"}
{"SMILES": "Cc1cn([C@@H]2CC[C@H](CO)C2)c(=O)[nH]c1=O", "result": ">400 µg/mL"}
{"SMILES": "CCOC(=O)c1cn(Cc2ccncc2)c(Sc2cccc(C)c2)c1C(C)C", "result": "70 µM"}
{"SMILES": "N#Cc1ccccc1CN1CCC(N=C2C=C(Cc3cccc4ccccc34)NS(=O)(=O)N2)CC1", "result": "108 µM"}
{"SMILES": "CCn1cc(C(=O)O)c(=O)c2cc(Br)c(Oc3ccnc(Nc4ccc(C#N)cc4)n3)cc21", "result": "20.46 µM"}
{"SMILES": "COc1ccc2nc3cc(Cl)ccc3c(NCCO)c2c1", "result": "1.8 µM"}
{"SMILES": "CCOC(=O)c1ccc(NC(=O)CSc2nncnc2-c2ccccc2Cl)c(Br)c1", "result": "69 µM"}
{"SMILES": "Cc1cc(C#N)cc(C)c1Oc1nc(Nc2ccc(C#N)cc2)nc(N)c1Br", "result": ">4.59 µM"}
{"SMILES": "Cc1ccc(NC(=O)CSc2nncnc2-c2cccc3ccccc23)c([N+](=O)[O-])c1", "result": "147 µM"}
{"SMILES": "C=S(=C)(N)c1ccc(CN2CCC(Nc3nc(Nc4c(C)cc(C)cc4C)c4[nH]cnc4n3)CC2)cc1", "result": "23.89 µM"}
{"SMILES": "CCCNc1nc(Cc2cccc3ccccc23)c(C)c(=O)[nH]1", "result": "44.02 µM"}
{"SMILES": "CCOC(=O)c1cn(Cc2ccncc2)c(Sc2cccc(Cl)c2)c1C(C)C", "result": "42 µM"}
{"SMILES": "Cc1cc(C)c(CN2CCC(N=C3C=C(Cc4ccc(Cl)cc4Cl)NS(=O)(=O)N3)CC2)c(C)c1", "result": "37.35 µM"}
{"SMILES": "O=C(CSc1sc(Cl)nc1-c1ccc(Br)cc1Br)Nc1ccccc1Cl", "result": "17.45 µM"}
{"SMILES": "O=c1[nH]cnc2c1ncn2[C@H]1CC[C@@H](CO)O1", "result": ">20 µg/mL"}
{"SMILES": "CCOC(=O)c1cn(Cc2ccccn2)c(Sc2cc(Cl)cc(Cl)c2)c1C(C)C", "result": "≥200 µM"}

Lines come from different laboratories, so protocols vary.